For this assay, the target named is Replicase polyprotein 1ab (Severe acute respiratory syndrome coronavirus, UniProt P0C6X7).

For the compound `CC(C)(C)NC(=O)C(c1cccnc1)N(C(=O)c1c[nH]cn1)c1ccc(C(C)(C)C)cc1` (stereo unspecified) [med.21724, Compound 125], inhibition was half-maximal at 6 µM (IC50).

Values taken from BindingDB's records for doi:10.1021/acs.jmedchem.5b01461 (University of Bonn, 2016).
